{"sequences": {"note": "Protein sequences, listed by entry. Tags and fused reporters are not part of them.", "UniProt Q8ZKQ6, whole entry": "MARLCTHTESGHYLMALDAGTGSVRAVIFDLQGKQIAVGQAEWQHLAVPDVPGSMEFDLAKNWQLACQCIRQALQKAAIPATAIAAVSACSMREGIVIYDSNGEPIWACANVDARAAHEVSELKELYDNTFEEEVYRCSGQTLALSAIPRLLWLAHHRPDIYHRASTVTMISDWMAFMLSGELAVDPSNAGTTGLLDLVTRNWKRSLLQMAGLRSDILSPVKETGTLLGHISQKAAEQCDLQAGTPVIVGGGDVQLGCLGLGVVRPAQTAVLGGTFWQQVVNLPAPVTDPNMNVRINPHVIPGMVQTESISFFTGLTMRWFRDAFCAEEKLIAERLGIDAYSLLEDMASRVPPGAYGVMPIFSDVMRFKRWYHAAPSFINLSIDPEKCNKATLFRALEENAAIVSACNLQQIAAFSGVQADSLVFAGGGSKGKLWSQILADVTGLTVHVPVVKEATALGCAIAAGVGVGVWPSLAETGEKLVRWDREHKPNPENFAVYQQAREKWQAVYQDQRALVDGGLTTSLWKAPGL"}, "source": "paper PMC6627609", "about": "“Targeting Quorum Sensing: High-Throughput Screening to Identify Novel LsrK Inhibitors” (International Journal of Molecular Sciences, 2019)", "target": "LsrK (Salmonella typhimurium, UniProt Q8ZKQ6)", "assay": "LsrK inhibition assay (Kinase-Glo Max Luminescent kinase assay)", "type": "biochemical, S. typhimurium", "conditions": "primary screening, 50 µM, tested in singles", "note": "Only a part of the results on these compounds is given; other tests are left out.", "data": [{"substance": "SODIUM NITROPRUSSIDE", "values": [{"measurement": "Inhibition (%)", "result": 64, "unit": "%"}]}]}
